Measured values from several laboratories, pooled; numbers as filed in NIAID ChemDB.

Common to all: enzyme or target tests; species: Hepatitis C virus

Percent inhibition refers to the dose given; in toxicity tests it is the harm to the cells. ICn: concentration for n% inhibition. Two numbers with a dash give a range or band. An empty or dashed field is not shown. Neighbouring rows are from separate reports.

compound | dose | measure | target | result
O=C(N[C@@H](Cc1cc2ccccc2[nH]1)C(=O)O)c1cc2nc(OCc3ccccc3)c(CCC3CCCCC3)c(=O)n2[nH]1 | - | IC50 | RNA-dependent RNA polymerase | <1 µM
CC1CCC(C(=O)N(c2cc(-c3cccc(C(F)(F)F)c3)sc2C(=O)O)C(C)C)CC1 | - | IC50 | NS3 ATPase | <5 µM
CC(C)S(=O)(=O)c1csc(C(=O)Nc2ccsc2-c2nc(C(=O)O)c(O)c(=O)[nH]2)c1 | - | IC50 | HCV polymerase | <25 µM
O=C(NCCO)c1cnn2c(C3CCCCC3)c(-c3ccc(OCc4ccccc4)cc3)cnc12 | - | IC50 | RNA-dependent RNA polymerase | 1–10 µM
Cc1cccc(CN(C(=O)C(C)C)c2cc(-c3ccccc3)sc2C(=O)O)c1 | - | IC50 | NS3 ATPase | 5–20 µM
CNC(=O)c1c(-c2ccc(F)cc2)oc2cc(NC(C)C)c(OC(C)C)cc12 | - | IC50 | Nonstructural protein 5B | ≤0.5 µM
COc1cc(Cl)cc(S(=O)(=O)NC(=O)Nc2cscc2-c2nc(C(=O)O)c(O)c(=O)[nH]2)c1 | - | IC50 | HCV polymerase | <25 µM
COc1cccc(-c2cc(NS(=O)c3ccccc3C)c(C(=O)O)s2)c1 | - | IC50 | NS3 ATPase | <5 µM
O=C(O)c1nc(-c2sccc2NS(=O)(=O)c2ccc3ccccc3c2)[nH]c(=O)c1O | - | IC50 | HCV polymerase | <25 µM
CC1CCC(C(=O)N(C)c2cc(-c3ccccc3)sc2C(=O)O)CC1 | - | IC50 | NS3 ATPase | <5 µM
O=C(O)c1ccc2c(c1)nc(-c1ccc3nc(-c4ccncc4)ccc3c1)n2C1CCCCC1 | 33 µM | inhibition | NS5B polymerase | 87.01%
CNC(=O)c1c(-c2ccc(F)cc2)oc2cc(NCC3CCCO3)c(OC(C)C)cc12 | - | IC50 | Nonstructural protein 5B | ≤0.5 µM
O=C(O)c1ccc2c(c1)nc(-c1ccc3nc(-c4cc(-c5ccc(Cl)c(Cl)c5)no4)ccc3c1)n2C1CCCCC1 | 100 µM | inhibition | NS5B polymerase | 102%
Cc1ccc(S(=O)(=O)N(C)c2cc(-c3ccccc3O)sc2C(=O)O)cc1 | - | IC50 | NS3 ATPase | 5–20 µM
CC(C)[C@H](NC(=O)c1ccc2cc(-c3nc4cc(C(=O)O)ccc4n3C3CCCCC3)ccc2n1)C(N)=O | 33 µM | inhibition | NS5B polymerase | 78.44%
C[C@H](C(=O)Nc1ccsc1-c1nc(C(=O)O)c(O)c(=O)[nH]1)c1ccccc1 | - | IC50 | HCV polymerase | <25 µM
CCOc1cc2c(C(=O)NC)c(-c3ccc(F)cc3)oc2cc1N(CC)CC | - | IC50 | Nonstructural protein 5B | ≤0.5 µM
NC(=O)c1ccc(-c2cc(NS(=O)(=O)c3ccc(Cl)cc3)c(C(=O)O)s2)cc1 | - | IC50 | NS3 ATPase | <5 µM
CNC(=O)c1c(-c2ccc(F)cc2)oc2cc(-c3c(C)noc3C)c(OCC3CC3)cc12 | - | IC50 | Nonstructural protein 5B | ≤0.5 µM
COc1ccc(-c2ccc(Cl)cc2)c(-c2ccc3cc(-c4nc5cc(C(=O)O)ccc5n4C(C)C)ccc3n2)c1 | 100 µM | inhibition | NS5B polymerase | 101%
CO[C@H]1CCCCC1N(C(=O)c1ccc(Cl)cc1Cl)c1cc(-c2ccccc2)sc1C(=O)O | - | IC50 | NS3 ATPase | <5 µM
O=C(O)c1cc2nccc(-c3cccc(-c4ccccc4F)c3)n2n1 | - | IC50 | RNA-dependent RNA polymerase | >10 µM
O=C(CNc1ccccc1)Nc1ccsc1-c1nc(C(=O)O)c(O)c(=O)[nH]1 | - | IC50 | HCV polymerase | <25 µM
CNC(=O)c1c(-c2ccc(F)cc2)oc2cc(N(CC(C)O)S(C)(=O)=O)c(O)cc12 | - | IC50 | Nonstructural protein 5B | ≤0.5 µM
O=C(O)c1cc2nc(-c3ccccc3Cl)cc(-c3ccc(-c4ccccc4)cc3)n2n1 | - | IC50 | RNA-dependent RNA polymerase | 1–10 µM
O=C(Nc1ccsc1-c1nc(C(=O)OC2OC(=O)c3ccccc32)c(O)c(=O)[nH]1)c1ccccc1 | - | IC50 | HCV polymerase | <50 µM
O=C(O)c1sc(-c2ccc(F)cc2)cc1NS(=O)(=O)c1ccc(F)cc1F | - | IC50 | NS3 ATPase | <5 µM
O=C(O)c1ccc2c(c1)nc(-c1ccc3nc(-c4cccc(O)c4)ccc3c1)n2C1CCCCC1 | 33 µM | inhibition | NS5B polymerase | 96.95%
CNC(=O)c1c(-c2ccc(F)cc2)oc2cc(N(C)S(=O)(=O)CC3CC3)c(OC(C)C)cc12 | - | IC50 | Nonstructural protein 5B | ≤0.5 µM
CC(C)c1ccc(NC(=O)Nc2cccc(-c3nc(C(=O)O)c(O)c(=O)[nH]3)c2)cc1 | - | IC50 | HCV polymerase | <100 µM
CCCOc1ccc(-c2cnc3c(C(=O)O)cnn3c2C2CCCCC2)cc1 | - | IC50 | RNA-dependent RNA polymerase | 1–10 µM
Cc1cccc(CNC(=O)Nc2cccc(-c3nc(C(=O)O)c(O)c(=O)[nH]3)c2)c1 | - | IC50 | HCV polymerase | <100 µM
NC(=O)[C@H](CO)NC(=O)c1ccc2cc(-c3nc4cc(C(=O)O)ccc4n3C3CCCCC3)ccc2n1 | 100 µM | inhibition | NS5B polymerase | 76.24%

The first 3 rows once more:

compound | dose | measure | target | result
O=C(N[C@@H](Cc1cc2ccccc2[nH]1)C(=O)O)c1cc2nc(OCc3ccccc3)c(CCC3CCCCC3)c(=O)n2[nH]1 | - | IC50 | RNA-dependent RNA polymerase | <1 µM
CC1CCC(C(=O)N(c2cc(-c3cccc(C(F)(F)F)c3)sc2C(=O)O)C(C)C)CC1 | - | IC50 | NS3 ATPase | <5 µM
CC(C)S(=O)(=O)c1csc(C(=O)Nc2ccsc2-c2nc(C(=O)O)c(O)c(=O)[nH]2)c1 | - | IC50 | HCV polymerase | <25 µM